Source: article PMC8247773, “Benzohydrazide and Phenylacetamide Scaffolds: New Putative ParE Inhibitors” (Frontiers in Bioengineering and Biotechnology, 2021)

The chains behind the UniProt entries cited, without tags or fusion partners.
UniProt P20083, whole entry: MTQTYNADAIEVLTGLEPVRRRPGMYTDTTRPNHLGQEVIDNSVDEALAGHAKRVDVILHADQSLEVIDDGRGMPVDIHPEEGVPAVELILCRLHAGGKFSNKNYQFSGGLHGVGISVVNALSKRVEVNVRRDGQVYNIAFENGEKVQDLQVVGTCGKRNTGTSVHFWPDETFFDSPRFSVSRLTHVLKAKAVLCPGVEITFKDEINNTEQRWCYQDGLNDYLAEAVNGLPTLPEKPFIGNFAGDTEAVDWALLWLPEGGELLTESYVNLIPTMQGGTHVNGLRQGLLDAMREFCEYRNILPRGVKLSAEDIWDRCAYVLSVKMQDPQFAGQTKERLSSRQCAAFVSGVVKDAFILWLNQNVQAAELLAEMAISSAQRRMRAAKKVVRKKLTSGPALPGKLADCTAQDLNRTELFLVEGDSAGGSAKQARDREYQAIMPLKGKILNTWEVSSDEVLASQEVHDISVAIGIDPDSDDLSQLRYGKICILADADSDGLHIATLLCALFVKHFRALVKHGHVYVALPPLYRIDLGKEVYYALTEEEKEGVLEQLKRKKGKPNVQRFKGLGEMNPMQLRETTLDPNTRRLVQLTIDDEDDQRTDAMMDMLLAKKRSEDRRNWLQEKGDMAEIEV
UniProt P0AFI2, whole entry partner: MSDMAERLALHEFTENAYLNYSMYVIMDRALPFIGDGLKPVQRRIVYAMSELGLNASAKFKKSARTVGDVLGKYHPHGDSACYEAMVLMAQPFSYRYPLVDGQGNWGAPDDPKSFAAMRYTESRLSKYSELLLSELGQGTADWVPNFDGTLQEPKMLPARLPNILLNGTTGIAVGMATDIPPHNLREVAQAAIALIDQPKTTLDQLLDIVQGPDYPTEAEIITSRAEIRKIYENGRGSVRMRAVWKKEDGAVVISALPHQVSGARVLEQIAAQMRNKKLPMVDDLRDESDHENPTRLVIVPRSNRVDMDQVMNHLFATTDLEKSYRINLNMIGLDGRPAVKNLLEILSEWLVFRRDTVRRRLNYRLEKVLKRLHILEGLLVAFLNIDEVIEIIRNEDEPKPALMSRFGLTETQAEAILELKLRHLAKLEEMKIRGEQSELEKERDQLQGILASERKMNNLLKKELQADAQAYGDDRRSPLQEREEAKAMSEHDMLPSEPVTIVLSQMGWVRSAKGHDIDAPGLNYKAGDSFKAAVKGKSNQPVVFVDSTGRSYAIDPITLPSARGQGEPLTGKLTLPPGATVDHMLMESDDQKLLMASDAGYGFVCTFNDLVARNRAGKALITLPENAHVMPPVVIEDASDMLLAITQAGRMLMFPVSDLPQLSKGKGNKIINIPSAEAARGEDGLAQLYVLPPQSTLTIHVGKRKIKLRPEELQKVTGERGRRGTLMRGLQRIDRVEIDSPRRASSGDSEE

Columns and labels:
[1] = test system: Escherichia coli (NCIM 2065); assay: Minimum bactericidal concentration (MBC); type: cell-based; settings: E. Coli (NCIM 2065)
E. coli ParE enzyme = E. coli ParE enzyme (Escherichia coli, UniProt P20083); assay: E. coli ParE ATPase enzyme inhibition assay (ProFoldin kit, malachite green); settings: ATPase activity, mean ± SD (n = 3)
[2] = test system: Klebsiella pneumonia (NCIM 2706); settings: ref Yele et al., 2020, 2021; cited from earlier work
[3] = test system: Staphylococcus epidermis (NCIM 2493); settings: ref Yele et al., 2020, 2021; cited from earlier work
[4] = test system: Pseudomonas aeruginosa (NCIM 2036); settings: ref Yele et al., 2020, 2021; cited from earlier work
[5] = test system: Staphylococcus aureus (NCIM 5022); settings: ref Yele et al., 2020, 2021; cited from earlier work
[6] = test system: Escherichia coli (NCIM 2567); settings: ref Yele et al., 2020, 2021; cited from earlier work
[7] = test system: Mycobacterium tuberculosis (NCIM 2984); settings: ref Yele et al., 2020, 2021; cited from earlier work
MRSA (NCIM 5021) = assay: Antibacterial susceptibility test, microbroth dilution MIC; settings: mean ± SD
[8] = test system: Escherichia coli (NCIM 2065); assay: as above; settings: E. Coli (NCIM 2065); mean ± SD
MRSA (ATCC43300) = assay: as above; settings: mean ± SD

COc1ccc(NNC(=O)CSc2nc3ccccc3s2)cc1
MBC [1]: 4.59 ± 0.26 µg/mL (≈ 13.3 µM) | IC50 against E. coli ParE enzyme (E. coli ParE enzyme): 2.78 µg/mL (≈ 8.05 µM) | Minimum inhibitory concentration (MIC) K. p [2]: 3.25 | Minimum inhibitory concentration (MIC) S. e [3]: 0.95 | Minimum inhibitory concentration (MIC) P. a [4]: 7.99 | Minimum inhibitory concentration (MIC) S. a [5]: 0.71 | Minimum inhibitory concentration (MIC) E. c [6]: 8.20 | Minimum inhibitory concentration (MIC) M. t [7]: 2.967 | Minimum inhibitory concentration (MRSA (NCIM 5021)): 4.94 ± 0.05 µg/mL (≈ 14.3 µM) | Minimum inhibitory concentration [8]: 4.70 ± 0.41 µg/mL (≈ 13.6 µM) | Minimum inhibitory concentration (MRSA (ATCC43300)): 4.92 ± 0.05 µg/mL (≈ 14.2 µM)

Values after ≈ are worked out from the molar mass of the structure shown.
